Data published in article PMC5104768, “Effects of lactoferrin derived peptides on simulants of biological warfare agents” (2016).
In brackets after ≈: the same amount, converted by molar mass.

How the values were obtained:
[1] = test system: isolates of Burkholderia pseudomallei including B. pseudomallei 979b; settings: ref Puknun et al. [2016], cited from earlier work
[2] = test system: Salmonella typhimurium DT104a (BM638); assay: Minimum bactericidal concentration (MBC)
[3] = test system: Salmonella typhimurium SF1399 (BM352); assay: Minimum bactericidal concentration (MBC)
Bacillus cereus (BM629) = assay: Minimum bactericidal concentration (MBC)
[4] = test system: Yersinia enterocolitica (DSM 4780); assay: Minimum bactericidal concentration (MBC)
S. typhimurium SF1399 [5] = assay: DiSC3(5) membrane depolarization assay; settings: S. typhimurium SF1399, 30 min; LFchimera at 12.5 μM; Fig. 2e
Y. enterocolitica [6] = assay: DiSC3(5) membrane depolarization assay; settings: 0-12.5 μM, 30 min, LFchimera statement at 3.1 μM, Fig. 2c
S. typhimurium DT104a [7] = assay: DiSC3(5) membrane depolarization assay; settings: 30 min, LFchimera at 12.5 μM, Fig. 2f
Y. pseudotuberculosis [8] = assay: DiSC3(5) membrane depolarization assay; settings: 30 min, LFchimera at 12.5 μM, Fig. 2d
B. cereus [9] = assay: DiSC3(5) membrane depolarization assay; settings: 0-12.5 μM, 30 min, LFchimera statement at 3.1 μM, Fig. 2b
S. typhimurium SF1399 [10] = assay: Propidium iodide (PI) membrane permeabilization assay; settings: S. typhimurium SF1399 ~10^8 CFU/ml in PPB, 10 μM PI, 1 h, 0.1-12.5 μM; Fig. 1e
Y. enterocolitica [11] = assay: as above; settings: Y. enterocolitica ~10^8 CFU/ml in PPB, 10 μM PI, 1 h, 0.1-12.5 μM; Fig. 1c
S. typhimurium DT104a [12] = assay: as above; settings: S. typhimurium DT104a ~10^8 CFU/ml in PPB, 10 μM PI, 1 h, 0.1-12.5 μM; Fig. 1f
Y. pseudotuberculosis [13] = assay: as above; settings: Y. pseudotuberculosis ~10^8 CFU/ml in PPB, 10 μM PI, 1 h, 0.1-12.5 μM; Fig. 1d
B. cereus [14] = assay: as above; settings: B. cereus ~10^8 CFU/ml in PPB, 10 μM PI, 1 h, 0.1-12.5 μM; Fig. 1b

Compound: CC(C)(O/N=C(\C(=O)N[C@@H]1C(=O)N2C(C(=O)[O-])=C(C[n+]3ccccc3)CS[C@H]12)c1csc(N)n1)C(=O)O
- Effect on B. pseudomallei strains, in words ([1]; overgrowth in 24 h): only inhibited

Compound: CC[C@H](C)[C@H](NC(=O)[C@H](CC(C)C)NC(=O)[C@@H](N)CC(=O)O)C(=O)N[C@@H](Cc1c[nH]c2ccccc12)C(=O)N[C@@H](CCCNC(=N)N)C(=O)N[C@@H](CC(C)C)C(=O)N[C@@H](CC(C)C)C(=O)N[C@@H](CO)C(=O)N[C@@H](CCCNC(=N)N)C(=O)N[C@@H](C)C(=O)N[C@@H](CCC(N)=O)C(=O)N[C@@H](CCC(=O)O)C(=O)N[C@@H](CCCNC(=N)N)C(=O)N[C@@H](Cc1ccccc1)C(=O)NCC(=O)N[C@@H](CCCCN)C(=O)N[C@@H](CC(N)=O)C(=O)N[C@@H](CCCNC(=N)N)C(=O)N[C@@H](CO)C(=O)N[C@@H](CCCNC(=N)N)C(=O)O
- MBC against S. typhimurium DT104a [2]: 1.6 µM (≈ 4 µg/mL)
- MBC against S. typhimurium SF1399 [3]: 3.1 µM (≈ 7.76 µg/mL)
- MBC against B. cereus (Bacillus cereus (BM629)): 12.5 µM (≈ 31.3 µg/mL)
- MBC against Y. enterocolitica [4]: 3.1 µM (≈ 7.76 µg/mL)

Compound: CC[C@H](C)[C@H](NC(=O)[C@H](CC(C)C)NC(=O)[C@@H](N)CC(=O)O)C(=O)N[C@@H](Cc1c[nH]c2ccccc12)C(=O)N[C@@H](CCCCN)C(=O)N[C@@H](CC(C)C)C(=O)N[C@@H](CC(C)C)C(=O)N[C@@H](CO)C(=O)N[C@@H](CCCCN)C(=O)N[C@@H](C)C(=O)N[C@@H](CCC(N)=O)C(=O)N[C@@H](CCC(=O)O)C(=O)N[C@@H](CCCCN)C(=O)N[C@@H](Cc1ccccc1)C(=O)NCC(=O)N[C@@H](CCCCN)C(=O)N[C@@H](CC(N)=O)C(=O)N[C@@H](CCCCN)C(=O)N[C@@H](CO)C(=O)N[C@@H](CCCNC(=N)N)C(=O)NCCCC[C@H](NC(=O)CNC(=O)[C@H](CC(C)C)NC(=O)[C@H](CCCCN)NC(=O)[C@H](CCCCN)NC(=O)[C@H](CCSC)NC(=O)[C@H](CCCNC(=N)N)NC(=O)[C@H](Cc1c[nH]c2ccccc12)NC(=O)[C@H](CCC(N)=O)NC(=O)[C@H](Cc1c[nH]c2ccccc12)NC(=O)[C@H](CCCNC(=N)N)NC(=O)[C@H](CCCNC(=N)N)NC(=O)[C@H](CS)NC(=O)[C@H](CCCCN)NC(=O)[C@@H](N)Cc1ccccc1)C(N)=O
- Concentration killing all B. pseudomallei isolates ([1]; within 2 h, all isolates including CAZ-resistant 979b): 5 to 10 µM
- Increase in DiSC3(5) fluorescence (S. typhimurium SF1399 [5]): approximately 25%
- DiSC3(5) fluorescence (membrane depolarization), in words (Y. enterocolitica [6]): relative high DiSC3(5) fluorescence
- Increase in DiSC3(5) fluorescence (S. typhimurium DT104a [7]): approximately 25%
- DiSC3(5) fluorescence compared to the control (Y. pseudotuberculosis [8]): 180%
- DiSC3(5) fluorescence (membrane depolarization), in words (B. cereus [9]): relative high DiSC3(5) fluorescence
- PI fluorescence (membrane permeabilization), in words (S. typhimurium SF1399 [10]): strongest increase
- PI fluorescence (membrane permeabilization), in words (Y. enterocolitica [11]): strongest increase
- PI fluorescence (membrane permeabilization), in words (S. typhimurium DT104a [12]): strongest increase
- PI fluorescence (membrane permeabilization), in words (Y. pseudotuberculosis [13]): strongest increase
- PI fluorescence (membrane permeabilization), in words (B. cereus [14]): comparable to LFampin265–284

Compound: CC[C@H](C)[C@H](NC(=O)[C@H](CC(C)C)NC(=O)[C@@H](N)CC(=O)O)C(=O)N[C@@H](Cc1c[nH]c2ccccc12)C(=O)N[C@@H](CCCCN)C(=O)N[C@@H](CC(C)C)C(=O)N[C@@H](CC(C)C)C(=O)N[C@@H](CO)C(=O)N[C@@H](CCCCN)C(=O)N[C@@H](C)C(=O)N[C@@H](CCC(N)=O)C(=O)N[C@@H](CCC(=O)O)C(=O)N[C@@H](CCCCN)C(=O)N[C@@H](Cc1ccccc1)C(=O)NCC(=O)N[C@@H](CCCCN)C(=O)N[C@@H](CC(N)=O)C(=O)N[C@@H](CCCCN)C(=O)N[C@@H](CO)C(=O)N[C@@H](CCCCN)C(=O)O
- MBC against S. typhimurium DT104a [2]: 12.5 µM (≈ 29.5 µg/mL)
- MBC against S. typhimurium SF1399 [3]: 25 µM (≈ 59 µg/mL)
- MBC against B. cereus (Bacillus cereus (BM629)): 25 µM (≈ 59 µg/mL)
- MBC against Y. enterocolitica [4]: 6.3 µM (≈ 14.9 µg/mL)

Compound: CC[C@H](C)[C@H](NC(=O)[C@H](CC(C)C)NC(=O)[C@@H](N)CC(=O)O)C(=O)N[C@@H](Cc1c[nH]c2ccccc12)C(=O)N[C@@H](CCCCN)C(=O)N[C@@H](CC(C)C)C(=O)N[C@@H](CC(C)C)C(=O)N[C@@H](CO)C(=O)N[C@@H](CCCCN)C(=O)N[C@@H](C)C(=O)N[C@@H](CCC(N)=O)C(=O)N[C@@H](CCC(=O)O)C(=O)N[C@@H](CCCCN)C(=O)N[C@@H](Cc1ccccc1)C(=O)NCC(=O)N[C@@H](CCCCN)C(=O)N[C@@H](CC(N)=O)C(=O)N[C@@H](CCCCN)C(=O)N[C@@H](CO)C(=O)N[C@@H](CCCNC(=N)N)C(=O)O
- MBC against S. typhimurium DT104a [2]: 6.3 µM (≈ 15.1 µg/mL)
- MBC against S. typhimurium SF1399 [3]: 12.5 µM (≈ 29.9 µg/mL)
- MBC against B. cereus (Bacillus cereus (BM629)): 25 µM (≈ 59.7 µg/mL)
- MBC against Y. enterocolitica [4]: 6.3 µM (≈ 15.1 µg/mL)
